Values from PubChem BioAssay AID504761 (Drosophila RNAi Screening Center, 2011)
The screen tested about 22,000 reagents; shown is a random part of those with a known target gene and a result. Over the whole deposit, 116 (0.52%) were called active. 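Calls depend on retest data that are not deposited; infection was ranked per plate without normalising between plates; the unit of the infection score is not given.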 The raw values are shown without normalisation. Names joined by + are all predicted targets of the reagent. The record does not give: the amount of reagent, the time to read-out.

- Screen: 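Insect host genes that dengue virus relies on to spread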 (primary screen)
- Cell system: D.Mel-2 cells from Drosophila
- Reagent: long dsRNA against Drosophila genes
- Treatment: infection with dengue virus type 2; dose and infection time not stated
- Read-out: 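Per well on two replicate plates, imaging gave the percent of cells positive for viral envelope protein, ranked by infection, and a nuclear count of cells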
- Scale: infection score: higher = more virus-infected cells; cell count: higher = more cells in the well
- Hit rule: 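Very low infection ranking in both replicate wells (chance probability at most 0.065), then a retest showing infection dropped 1.5-fold or more at p below 0.05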
- Meaning of the calls: active = confirmed: knock-down lowers infection; inactive = not picked or not confirmed

| gene knocked down | amplicon | infection score, replicate 1 | infection score, replicate 2 | cell count, replicate 1 | cell count, replicate 2 | outcome |
| --- | --- | --- | --- | --- | --- | --- |
| by | DRSC16482 | 4.25 | 14 | 6536 | 2289 | inactive |
| by | DRSC28644 | 23.3 | 16.5 | 6311 | 5326 | inactive |
| PIG-C | DRSC08241 | 1.84 | 3.65 | 6366 | 6145 | inactive |
| CG17027 | DRSC10238 | 13.3 | 22.5 | 7042 | 5760 | inactive |
| CG17027 | DRSC25560 | 1.88 | 2.85 | 6026 | 6103 | inactive |
| CG31464 | DRSC14345 | 5.3 | 6.57 | 6360 | 6714 | inactive |
| CG16972 | DRSC02550 | 4.16 | 6.4 | 6100 | 6294 | inactive |
| Jhbp15 | DRSC15217 | 3.38 | 5.36 | 6422 | 6311 | inactive |
| dnk | DRSC16933 | 8.2 | 0.96 | 4303 | 5325 | inactive |
| dnk | DRSC29240 | 9.94 | 10.3 | 2193 | 4925 | inactive |
| Mi-2 + Su(Tpl) | DRSC09640 | 2.21 | 1.53 | 6552 | 5948 | inactive |
| p-cup | DRSC19513 | 4.99 | 4.26 | 6593 | 6811 | inactive |
| pins | DRSC17043 | 6.55 | 3.09 | 5989 | 6839 | inactive |
| Rab3-GAP | DRSC02001 | 13.6 | 21.7 | 6523 | 6291 | inactive |
| Rab3-GAP | DRSC28519 | 16.5 | 3.3 | 5715 | 848 | inactive |
| CG33268 | DRSC10143 | 1.63 | 3.71 | 5761 | 6125 | inactive |
| CG6893 | DRSC10742 | 6.21 | 2.89 | 6550 | 6568 | inactive |
| CG14715 | DRSC14938 | 13.9 | 10.7 | 6380 | 6389 | inactive |
| Oscillin | DRSC03001 | 2.09 | 1.86 | 6659 | 7038 | inactive |
| Oscillin | DRSC29150 | 11.3 | 11.1 | 4349 | 5836 | inactive |
| CG12123 | DRSC17818 | 3.3 | 1.23 | 6662 | 6366 | inactive |
| sa | DRSC11649 | 5.54 | 2.27 | 6354 | 6213 | inactive |
| CG13962 | DRSC02304 | 11.3 | 2.83 | 5940 | 6331 | inactive |
| CG13962 | DRSC30042 | 28.4 | 35.5 | 6175 | 6443 | inactive |
| MFS1 | DRSC04115 | 9.92 | 14.9 | 6744 | 6724 | inactive |
| MFS1 | DRSC27926 | – | 19.7 | 465 | 6356 | inactive |
| Sting | DRSC06615 | 14.4 | 32.8 | 6504 | 5589 | inactive |
| Sting | DRSC29477 | 28.7 | 11.7 | 4703 | 4623 | inactive |
| CG3999 | DRSC15534 | 9.83 | 7.18 | 6833 | 7066 | inactive |
| CG3999 | DRSC29444 | 25.1 | 21.8 | 4358 | 5578 | inactive |
| Zaf1 | DRSC16121 | 3.97 | 4.56 | 6355 | 5938 | inactive |
| retm | DRSC03252 | 3.6 | 2.66 | 5862 | 6348 | inactive |
| Twdlbeta | DRSC07310 | 2.71 | 6.46 | 6863 | 6672 | inactive |
| Twdlbeta | DRSC25646 | 4.53 | 3.88 | 6583 | 6193 | inactive |
| CG12128 | DRSC06104 | 6.89 | 5.79 | 6055 | 6222 | inactive |
| CG12128 | DRSC29958 | 17 | 11.2 | 4442 | 5681 | inactive |
| OS9 | DRSC02700 | 18.6 | 3.02 | 5156 | 6810 | inactive |
| OS9 | DRSC27743 | 35.2 | 25.1 | 5311 | 5721 | inactive |
| S-Lap5 | DRSC06732 | 17.8 | 7.98 | 6243 | 5641 | inactive |
| S-Lap5 | DRSC24405 | 2.96 | 2.79 | 6964 | 6630 | inactive |
| CycB3 | DRSC16618 | 4.21 | – | 2375 | 392 | inactive |
| Tep1 | DRSC03450 | 14.9 | 2.69 | 5673 | 6761 | inactive |
| Tep1 | DRSC26163 | 19.1 | 5.29 | 5918 | 6257 | inactive |
| CG1273 | DRSC08291 | 2.95 | 1.99 | 5557 | 5590 | inactive |
| Rrp6 | DRSC16223 | 10.7 | 20 | 750 | 987 | inactive |
| GluRIIA | DRSC03334 | 3.15 | 6.56 | 6248 | 6735 | inactive |
| Plzf | DRSC02994 | 12.6 | 13.9 | 6464 | 6270 | inactive |
| Vps35 | DRSC04519 | 7.99 | 19.6 | 6208 | 5342 | inactive |
| Vps35 | DRSC28790 | 25.9 | 10.9 | 4620 | 3755 | inactive |
| RhoGAP100F | DRSC15409 | 4.89 | 1.09 | 5847 | 6444 | inactive |
| RhoGAP100F | DRSC28096 | 9.97 | 32.9 | 6639 | 5657 | inactive |
| CG4629 | DRSC00659 | 7.77 | 1.72 | 6452 | 6562 | inactive |
| CG4629 | DRSC27952 | 11.5 | 4.26 | 6498 | 5471 | inactive |
| Rx | DRSC03837 | 4.92 | 1.96 | 6327 | 6275 | inactive |
| Rx | DRSC04652 | 5.65 | 11.5 | 6705 | 6392 | inactive |
| Rx | DRSC25248 | 0.93 | 0.54 | 6137 | 6103 | inactive |
| Ranbp21 | DRSC19447 | 5.88 | – | 5698 | 538 | inactive |
| eIF2Bepsilon | DRSC18769 | 7.31 | 4.77 | 5526 | 440 | inactive |

Individual results from above.
Under “cell count, replicate 1”, by [DRSC16482] is entered as 6536
For “cell count, replicate 1”, pins [DRSC17043] is entered as 5989
For “cell count, replicate 1”, CycB3 [DRSC16618] is entered as 2375
Result for Oscillin [DRSC29150] under “infection score, replicate 2”: 11.1
CG31464 [DRSC14345], cell count, replicate 1 = 6360
Value for Sting [DRSC06615] under “infection score, replicate 1”: 14.4
